Results of unrelated studies side by side (data: NIAID ChemDB).

Common to all: growth or infection tests; organism: HIV-1; cell line: TZM-bl; endpoint: EC50

Neighbouring rows are from separate reports.

compound,strain,mutations,read by,setting,result
CC(C)(C)C1=NC(c2ccccc2)(C(F)(F)F)NC(=O)N1,NL4-3,L100I,luciferase,-,43.1 µM
Cc1cn(C2CC(n3nnc(C4CC4)c3C3(C(F)(F)F)OC(=O)Nc4ccc(Cl)cc43)C(CO)O2)c(=O)[nH]c1=O,VB59,-,luminescence,-,6.33 µg/mL
CCc1ccccc1N/N=C/c1ccc2cccc(O)c2n1,UG070,-,luciferase,-,10.09 µM
CCC(=O)c1ccc(F)c([C@@H]2C[C@@H]2NC(=O)Nc2ccc(C#N)cn2)c1O,LAI,NNRTI-resistant (RT E138K),β-galactosidase / luminescence,-,0.00189 µM
Nc1ccn([C@@H]2CS[C@H](CO)O2)c(=O)n1,NL4-3,M184V,luciferase,-,3.596 µM
NCCC(NC(=O)c1ccc(-c2ccc(C(F)(F)F)cn2)[nH]1)c1cnc(CO)s1,HXB2,-,luciferase,pseudotyped,2.1 µM
CCc1ccc(CCN=C2NC(=O)/C(=C/c3ccc(-c4ccc(C(=O)O)c(O)c4)o3)S2)cc1,AD8,-,β-galactosidase,-,0.85 µM
Oc1cccc2ccc(/C=N/Nc3ccccc3)nc12,VB59,-,luciferase,-,16.6 µM
COc1ccc(-c2nnc(-c3ccc4cccc(OC)c4n3)o2)cc1OC,VB59,-,luminescence,-,>135 µM
COC(=O)c1cccc(Cn2ccc3ccc(-c4ccc5ccn(Cc6cccc(C(=O)Oc7c(F)c(F)c(S(=O)(=O)[O-])c(F)c7F)c6)c5c4)cc32)c1.[Na+],HXB2,-,luciferase,pseudotyped,0.09 µM
NCC(=O)N1CCCC1C(=O)NCC(N)=O,-,-,luciferase / reporter gene,-,~50 µM
Nc1cc2c3c(cc4ccccc4c3c1)N(CCN1CCCCC1)C2=O,NL4-3,-,luciferase,-,2 µM
O=C1NC(=NCc2ccc(Cl)cc2)S/C1=C\c1ccc(-c2ccc(C(=O)O)c(O)c2)o1,AD8,-,β-galactosidase,-,4.3 µM
NCCC(NC(=O)c1ccc(-c2ccc(Cl)nc2)[nH]1)c1nc(CO)cs1,HXB2,-,luciferase,pseudotyped,>11 µM
COC[C@@H](c1ccc(C(F)(F)F)cc1)N1CCN(C2(C)CCN(C(=O)c3c(C)ncnc3C)CC2)C[C@@H]1C,R14/S,M518V F519L V535M,-,-,0.0019 µM
O=C1NC(=NCc2ccc(Cl)c(F)c2)S/C1=C\c1ccc(-c2ccc(C(=O)O)c(O)c2)o1,AD8,-,β-galactosidase,-,3 µM
Cc1cn([C@H]2C[C@H](N=[N+]=[N-])[C@@H](CO)O2)c(=O)[nH]c1=O,SF162,-,luciferase / luminescence,-,0.00523 µM
Oc1cccc2ccc(/C=N/Nc3ccc(Cl)cc3Cl)nc12,VB59,-,luciferase,-,>150 µM
COc1cc2c3c(cc4cc(F)ccc4c3c1OC)N(CCN1CCCCC1)C2=O,NL4-3,-,luciferase,-,0.55 µM
Cc1ccnc(C)c1C(=O)N1CCC(C)(N2CCN([C@@H](C)c3ccc(C(F)(F)F)cc3)[C@@H](C)C2)CC1,BaL,-,-,-,0.17 µM
COc1cccc2ccc(/C=C/C(=O)Nc3ccc(C)cc3)nc12,UG070,-,luminescence,-,155 µM
Cc1ccc(-c2ccc(NC(=O)N3CCC4(CCO4)CC3)cc2)cc1,CNE55,-,luminescence,pseudotyped,>30 µM
Cc1ccc(N=Cc2cc3ccccc3nc2Nc2ccc(C)cc2)cc1,VB59,-,luminescence,-,>130 µM
COc1cc2c(cc1Cc1cccc(Cl)c1F)c(=O)c(C(=O)O)cn2[C@H](CO)C(C)C,LAI,3'-PPT mutations,luminescence,-,0.00076 µM
Cn1cc(C(=O)N2CCC(c3cc(CCOc4ccccc4Cl)[nH]n3)C2)cn1,BaL,-,luciferase,-,3.59 µM
COc1ccc2cc3c4c(cc(OC)c(OC)c4c2c1)C(=O)N3CCN1CCCCC1,NL4-3,-,luciferase,-,1.07 µg/mL
Cc1ccc(N/N=C/c2ccc3cccc(O)c3n2)cc1,UG070,-,luciferase,-,54.6 µM
Cc1cn(CC(=O)Nc2ccc(Br)cn2)c(=O)[nH]c1=O,IIIB,-,luciferase,-,17 µM
O=C1NC(=NCCc2ccc(F)cc2)S/C1=C\c1ccc(-c2ccc(C(=O)O)c(O)c2)o1,NL4-3,-,β-galactosidase,-,0.75 µM
O=C(Cn1ccc(=O)[nH]c1=O)Nc1ccc([N+](=O)[O-])cn1,UG070,-,luciferase,-,2.4 µM
CC(C)c1c(Cc2ccccc2)n(COCc2ccccc2)c(=O)[nH]c1=O,SF33,-,p24 / ELISA,-,0.022 µM
CCCCCCCCCCCCCCCCOC1O[C@@H](CO)[C@H](O)[C@H](O)[C@@H]1O,NL4-3,-,luciferase,-,32.43 µM
COc1ccc(N(C)C(=O)C(Cc2cc(F)cc(F)c2)NC(=O)c2cn(C3CC(n4cc(C)c(=O)[nH]c4=O)OC3CO)nn2)cc1,NL4-3,-,MTT,-,>15.63 µM
Cc1ccc(N/N=C/c2ccc3cccc(O)c3n2)cc1C,UG070,-,luciferase,-,>150 µM
NCCC(NC(=O)c1ccc(-c2ccc(C(F)(F)F)cn2)[nH]1)c1csc(C(=O)NCCO)n1,HXB2,-,luciferase,pseudotyped,>21.3 µM
Cc1cn([C@H]2C[C@H](N=[N+]=[N-])[C@@H](CO)O2)c(=O)[nH]c1=O,-,-,-,-,0.085 µM
O=C(CCC(=O)Nc1ccc([N+](=O)[O-])cn1)Nc1ccc([N+](=O)[O-])cn1,VB59,-,luciferase,-,191.6 µM
COc1ccc(N(C)C(=O)[C@H](Cc2ccccc2)NC(=O)c2cccc(-c3cn(C4CC(n5cc(C)c(=O)[nH]c5=O)OC4CO)nn3)c2)cc1,NL4-3,-,MTT,-,>29.42 µM
COc1cc2c3c(cc4cc(Cl)ccc4c3c1OC)N(CCN1CCCCC1)C2=O,NL4-3,-,luciferase,-,0.44 µM
CC(C)(N)CC(NC(=O)c1ccc(-c2ccc(C(F)(F)F)cn2)[nH]1)c1nc(CO)cs1,-,-,luciferase,pseudotyped,1.73 µM
Cn1cc(C(=O)N2CCC(c3cc(CCOc4ccccc4C(F)(F)F)[nH]n3)C2)cn1,BaL,-,luciferase,-,1.57 µM
C[C@@H]1CCO[C@H]2Cn3cc(C(=O)NCc4ccc(F)cc4F)c(=O)c(O)c3C(=O)N12,-,I60M/L74F/V75I,luciferase / luminescence,-,0.0012 µM
Cc1cn([C@H]2C[C@H](N=[N+]=[N-])[C@@H](CO)O2)c(=O)[nH]c1=O,SF162,-,luciferase,-,0.00531 µM
NCCC(NC(=O)c1ccc(-c2ncc(Cl)cn2)[nH]1)c1nc(CO)cs1,HXB2,-,luciferase,pseudotyped,>15.8 µM
COc1cccc2ccc(-c3nnc(-c4ccc5c(c4)OCO5)o3)nc12,VB59,-,luminescence,-,119 µM
Cc1cccc(N/N=C/c2ccc3cccc(O)c3n2)c1C,UG070,-,luciferase,-,19.22 µM
O=C(CCC(=O)Nc1ccc(Br)cn1)Nc1ccc(Br)cn1,ADA5,-,luciferase,-,63.08 µM
CCOC(=O)/C=C/c1ccc2c(c1)c(=O)c(/C(O)=C/C(=O)C(=O)OCC)cn2Cc1ccc(F)cc1,NL4-3,-,p24,-,>140 µM
CCN(CC)C(=O)Oc1ccc2cccnc2c1-c1cccc2cccnc12,YU2,-,luciferase,pseudotyped,2.3 µM
Brc1cccc(N=Cc2cc3ccccc3nc2Nc2cccc(Br)c2)c1,UG070,-,luminescence,-,>100 µM
O=C(Cn1cnc2c([N+](=O)[O-])cccc21)Nc1ccccn1,UG070,-,luciferase,-,8.65 µM
COc1ccc(OCCc2cc(C3CCN(C(=O)c4cnn(C)c4)C3)n[nH]2)cc1,BaL,-,luciferase,-,>100 µM
C[C@H](Cn1cnc2c(N)ncnc21)OCP(=O)(O)O,pTHRO.c/2626,-,luciferase,-,0.008 µM
COc1ccccc1OCCc1cc(C2CCN(C(=O)c3cnn(C)c3)C2)n[nH]1,BaL,-,luciferase,-,>100 µM
COc1ccc(N/N=C/c2ccc3cccc(O)c3n2)cc1,VB59,-,luciferase,-,1.88 µM
COc1cccc2ccc(C(CC(=O)Nc3ccccc3)Nc3ccccc3)nc12,UG070,-,luminescence,-,>100 µM
Cc1ccccc1N/N=C/c1ccc2cccc(O)c2n1,VB59,-,luciferase,-,33.35 µM
Cc1ccc(Cl)cc1Nc1nc(C(F)(F)F)ccc1C(=O)NN1CCN(c2cccc(Cl)c2)CC1,IIIB,-,luciferase,-,10 µM
CC(CCN)(NC(=O)c1ccc(-c2ccc(C(F)(F)F)cn2)[nH]1)c1nc(CO)cs1,HXB2,-,luciferase,pseudotyped,5.1 µM
Oc1cccc2ccc(/C=N/Nc3ccccc3C(F)(F)F)nc12,VB59,-,luciferase,-,16.57 µM
C[C@H]1CO[C@@H]2Cn3cc(C(=O)NCc4ccc(F)cc4F)c(=O)c(O)c3C(=O)N12,LAI,3'-PPT mutations,luminescence,-,0.00037 µM

For reference, 7 entries again:

compound	strain	mutations	read by	setting	result
COc1ccc(N(C)C(=O)[C@H](Cc2ccccc2)NC(=O)c2cccc(-c3cn(C4CC(n5cc(C)c(=O)[nH]c5=O)OC4CO)nn3)c2)cc1	NL4-3	-	MTT	-	>29.42 µM
Oc1cccc2ccc(/C=N/Nc3ccccc3)nc12	VB59	-	luciferase	-	16.6 µM
O=C(CCC(=O)Nc1ccc([N+](=O)[O-])cn1)Nc1ccc([N+](=O)[O-])cn1	VB59	-	luciferase	-	191.6 µM
CCc1ccc(CCN=C2NC(=O)/C(=C/c3ccc(-c4ccc(C(=O)O)c(O)c4)o3)S2)cc1	AD8	-	β-galactosidase	-	0.85 µM
COC(=O)c1cccc(Cn2ccc3ccc(-c4ccc5ccn(Cc6cccc(C(=O)Oc7c(F)c(F)c(S(=O)(=O)[O-])c(F)c7F)c6)c5c4)cc32)c1.[Na+]	HXB2	-	luciferase	pseudotyped	0.09 µM
C[C@@H]1CCO[C@H]2Cn3cc(C(=O)NCc4ccc(F)cc4F)c(=O)c(O)c3C(=O)N12	-	I60M/L74F/V75I	luciferase / luminescence	-	0.0012 µM
C[C@H]1CO[C@@H]2Cn3cc(C(=O)NCc4ccc(F)cc4F)c(=O)c(O)c3C(=O)N12	LAI	3'-PPT mutations	luminescence	-	0.00037 µM

ECn: concentration that inhibits the pathogen or its effect by n%. Blank or dashed fields: not listed here.